A short description of this data set: LLOQ determination by serial dilutions of AQ mix spiked into blank urine/plasma (LC-MS/MS). As to conditions: for Calculated LLOQ in plasma: spiked blank plasma; for Calculated LLOQ in urine: spiked blank urine. Also on record: species or system human.

Take `CCCCCCCc1[nH]c2ccccc2c(=O)c1O` [C7-PQS, 2-heptyl-3-hydroxy-4(1H)-quinolone]: the “Calculated LLOQ in plasma” value was 100 pmol/L and the “Calculated LLOQ in urine” value is 50 pmol/L.
For the compound `CCCCCCCc1cc(O)c2ccccc2[n+]1[O-]` [HQNO, 2-heptyl-4-hydroxyquinoline N-oxide], the “Calculated LLOQ in plasma” value is 30 pmol/L and the “Calculated LLOQ in urine” value is on record as 30 pmol/L.
Turning to `CCCCCCCCCc1cc(O)c2ccccc2[n+]1[O-]` [NQNO, 2-nonyl-4-hydroxyquinoline N-oxide], the “Calculated LLOQ in plasma” value is listed as 40 pmol/L and the “Calculated LLOQ in urine” value is 50 pmol/L.
Regarding `CCCCCCCCCc1cc(O)c2ccccc2n1` [NHQ, 2-nonyl-4-hydroxyquinoline], the “Calculated LLOQ in plasma” value was 10 pmol/L and the “Calculated LLOQ in urine” value is 10 pmol/L.

These data come from patent publication US10139406B2, “Alkyl quinolones as biomarkers of pseudomonas aeruginosa infection and uses thereof” (priority 2013, dated 2018).
